Compound potency records, mixed from different reports. Data source: NIAID ChemDB in PubChem.

Shared fields: tests in culture; species: Human cytomegalovirus; read by: plaque count; read-out: EC50

Rows are shuffled and stem from different studies.

compound	cells	strain or isolate	result
Nc1ccn(C[C@H]2COP(=O)(O)CO2)c(=O)n1	HFF	AD169	0.9 µM
Nc1nc2c(ncn2COC(CO)CO)c(=O)[nH]1	HFF	-	3.9 µM
CCc1cn([C@@H]2O[C@H](CO)[C@@H](O)[C@@H]2O)c(=S)nc1N	MRC-5	T-137	>264.9 µM
Nc1nc2c(ncn2/C=C2/CC2(CO)CO)c(=O)[nH]1	HFF	VR 4955 (ganciclovir- foscarnet-resistant)	1.7 µM
Nc1nc2c(ncn2COC(CO)CCP(=O)(O)O)c(=O)[nH]1	MRC-5	AD169	6.2 µM
Cc1ccc(S(=O)(=O)NC(N)=NCCC[C@H](NC(=O)OCc2cccnc2)C(=O)N[C@H](C(=O)N[C@H](C=O)Cc2ccccc2)C(C)(C)C)cc1	HELF	HE	0.49 µM
CCCCCCCCCCCCCCCCOP(=O)(O)CO[C@H](CO)Cn1ccc(N)nc1=O	HFF	Coffman	0.01 µM
Cc1cn([C@@H]2O[C@H](CO)[C@@H](O)[C@@H]2O)c(=S)nc1N	MRC-5	T-137	>264.9 µM
Nc1ccn(C[C@@H](CO)OCP(=O)(O)O)c(=O)n1	HFF	Isolate Helebrand (resistant)	0.6 µM
Nc1nc2c(ncn2C=C2CC2CO)c(=O)[nH]1	-	RCdelta97.19	9.6 µM
Nc1nc(=S)n([C@@H]2O[C@H](CO)[C@@H](O)[C@@H]2O)cc1CO	MRC-5	93-1R	98.8 µM
Nc1nc2c(ncn2C=C2CC2CO)c(=O)[nH]1	HFF	TOWNE	11.6 µM
Nc1nc2c(ncn2COCCCP(=O)([O-])O)c(=O)[nH]1	MRC-5	AD169	11.9 µg/mL
Nc1nc(NCC2CC2)c2ncn(/C=C3/C[C@@H]3CO)c2n1	HFF	-	52 µM
Nc1nc2c(ncn2COC(CO)CO)c(=O)[nH]1	MRC-5	DAVID	7 µM
Nc1nc2c(ncn2COC[C@@H](O)CO)c(=O)[nH]1	MRC-5	AD169	>25 µg/mL
CCCCCCCC/C=C\CCCCCCCOCCCOP(=O)(O)CO[C@H](CO)Cn1ccc(N)nc1=O	HFF	TOWNE	0.002 µM
O=C(NCc1ccc(Cl)cc1)c1cn2c3c(cc(CN4CCOCC4)cc3c1=O)OC(c1cccnc1)C2	HFF	TOWNE	1.7 µM
O=c1[nH]c(=S)n([C@@H]2O[C@H](CO)[C@@H](O)[C@@H]2O)cc1CCO	MRC-5	AD169	>213 µM
Nc1nc2c(ncn2/C=C2/CC2(CO)CO)c(=O)[nH]1	HFF	AD169	11.7 µM
CCCc1cn([C@H]2C[C@H](O)[C@@H](CO)O2)c(=S)nc1N	MRC-5	T-137	>277.4 µM
Cn1cc(C(=O)NCc2ccc(Cl)cc2)c(=O)c2cc(CN3CCOCC3)ccc21	HFF	Coffman	5 µM
C=Cc1cn([C@@H]2O[C@H](CO)[C@@H](O)[C@@H]2O)c(=S)[nH]c1=O	MRC-5	AD169	>213 µM
Nc1nc2c(ncn2COC(CO)CCP(=O)([O-])O)c(=O)[nH]1	MRC-5	AD169	2 µg/mL
CCCCCCCC/C=C\CCCCCCCCOCCOP(=O)(O)CO[C@H](CO)Cn1ccc(N)nc1=O	HFF	1117-R	0.04 µM
Nc1n[nH]c(=O)c2c1ccn2[C@@H]1O[C@H](CO)[C@@H](O)[C@H]1O	-	TOWNE	>100 µM
CCCc1cn([C@H]2C[C@H](O)[C@@H](CO)O2)c(=S)[nH]c1=O	MRC-5	AD169	>277.6 µM
Nc1ccn(C[C@@H](CO)OCP(=O)(O)O)c(=O)n1	HFF	AD169	0.4 µM
C#CCNc1nc(N)nc2c1ncn2/C=C1/C[C@@H]1CO	HFF	-	2.6 µM
O=C(O)P(=O)(O)O	HFF	Isolate Helebrand (wild type)	94.77 µM
Nc1nc2c(ncn2COC(CO)CO)c(=O)[nH]1	MRC-5	AD169	4.5 µM
Nc1nc2c(ncn2COC(CO)CO)c(=O)[nH]1	HFF	DAVIS	0.9 µM
Nc1nc2c(ncn2[C@@H]2C[C@H](CO)[C@H]2CO)c(=O)[nH]1	HFF	Isolate Helebrand (wild type)	6.24 µM
CCCCCCCCCCCCCCCCCCOC[C@H](COP(=O)(O)CO[C@H](CO)Cn1ccc(N)nc1=O)OCc1ccccc1	HFF	C8914-6	0.02 µM
Nc1ccn(C[C@@H](CO)OCP(=O)(O)O)c(=O)n1	HFF	AD169	0.3 µM
OC[C@H]1O[C@@H](n2c(Br)nc3cc(Cl)c(Cl)cc32)[C@H](O)[C@@H]1O	MRC-5	1038RA 5-2-3 (plaque-purified 1038RA strain)	6 µM
Nc1nc(NC2CC2)c2ncn(C=C3CC3CO)c2n1	HFF	EC	2.2 µM
CN(C)c1cccc2c(S(=O)(=O)Nc3ccc(NC(=O)C(C)(C)CO)cc3)cccc12	-	Isolate HE	0.89 µM
Nc1nc(=S)n([C@@H]2O[C@H](CO)[C@@H](O)[C@@H]2O)cc1/C=C/c1ccccc1	MRC-5	T-137	>213 µM
C#Cc1cn([C@H]2C[C@H](O)[C@@H](CO)O2)c(=O)[nH]c1=O	MRC-5	-	0.07 µM
CCCCCOc1nc(N)nc2c1ncn2/C=C1/C[C@@H]1CO	HFF	-	1.4 µM

The last 5 rows once more:

compound,cells,strain or isolate,result
Nc1nc(NC2CC2)c2ncn(C=C3CC3CO)c2n1,HFF,EC,2.2 µM
CN(C)c1cccc2c(S(=O)(=O)Nc3ccc(NC(=O)C(C)(C)CO)cc3)cccc12,-,Isolate HE,0.89 µM
Nc1nc(=S)n([C@@H]2O[C@H](CO)[C@@H](O)[C@@H]2O)cc1/C=C/c1ccccc1,MRC-5,T-137,>213 µM
C#Cc1cn([C@H]2C[C@H](O)[C@@H](CO)O2)c(=O)[nH]c1=O,MRC-5,-,0.07 µM
CCCCCOc1nc(N)nc2c1ncn2/C=C1/C[C@@H]1CO,HFF,-,1.4 µM

ECn is the concentration giving n% inhibition of infection, replication or growth. An empty or dashed field is not shown.